Results of unrelated studies side by side (data: NIAID ChemDB).

All rows: enzyme or target tests; organism: HIV-1; target: Protease; read-out: IC50

ICn: concentration for n% inhibition.

compound,strain,method,value
CC(C)(C)OC(=O)N[C@@H](Cc1ccccc1)[C@H](O)C(=O)N1CCC[C@H]1C(=O)N[C@@H](CCC(N)=O)C(=O)NCC1CCCCC1,-,-,>1000 µM
CCC(Cc1cccc(NS(=O)(=O)c2ccc(C(=O)O)cc2)c1)c1cc(O)c(C(c2ccccc2)C2CC2)c(=O)o1,-,fluorescence,1.64 µM
O=c1oc(-c2ccccc2)cc(O)c1SCCCc1ccccc1,-,-,1.41 µM
CCOC(=O)c1cn(CC(O)CNc2ccccc2Cl)cc1-c1ccccc1,-,-,>200 µM
CC(C)[C@H](NC(=O)C(CN)Cc1ccccc1)C(=O)N[C@@H](Cc1ccccc1)[C@@H](O)[C@H](O)[C@H](Cc1ccccc1)NC(=O)[C@@H](NC(=O)C(CN)Cc1ccccc1)C(C)C,D34,HPLC,0.00025 µM
CC(C)[C@@H]1NC(=O)[C@@H](NC(=O)OCc2ccccc2)CCCOc2ccc(cc2)C[C@@H]([C@@H](O)[C@H](O)[C@@H]2Cc3ccc(cc3)OCCC[C@H](NC(=O)OCc3ccccc3)C(=O)N[C@@H](C(C)C)C(=O)N2)NC1=O,-,fluorescence,0.006 µM
C=C(C)[C@H]1CC[C@]2(C)[C@H]3CC[C@@H]4[C@@]5(C)C[C@H](O)C[C@](C)(C(=O)O)[C@@H]5CC[C@@]4(C)[C@]3(C)CC[C@@H]12,-,HPLC,26.5 µM
CC(=O)N[C@@H](C)C(=O)N[C@H](C(=O)N[C@@H](Cc1ccccc1)[C@@H](O)C(=O)N[C@H]1Cc2ccc(cc2)OCCCNC(=O)[C@H](C(C)C)NC1=O)C(C)C,-,fluorescence,0.006 µM
CCOC(=O)c1cn(CC(O)CNc2ccccc2)cc1-c1ccccc1,-,-,>200 µM
CCC(Cc1cccc(NS(=O)(=O)c2ccc(C(F)(F)F)cn2)c1)c1cc(O)c(C(c2ccccc2)C2CC2)c(=O)o1,-,fluorescence,0.1 µM
O=C(O)/C=C/c1ccc(O)c(O)c1,-,HPLC,>100 µM
CC(C)(C)NC(=O)[C@@H]1CCCN1C(=O)[C@@H](O)[C@H](Cc1ccccc1)NC(=O)[C@H](CS(N)(=O)=O)NC(=O)COc1cccc2ccccc12,-,-,>0.05 µM
CCC(Cc1cccc(NS(=O)(=O)c2ccc(C)cc2)c1)c1cc(O)c(C(c2ccccc2)C2CC2)c(=O)o1,-,fluorescence,5.12 µM
CC(C)(C)NC(=O)[C@H]1N(C(=O)[C@@H](O)[C@H](Cc2ccccc2)NC(=O)[C@H](CC(N)=O)NC(=O)COc2cccc3cccnc23)CSC1(C)C,-,-,~0.05 µM
O=c1oc(-c2ccccc2)cc(O)c1SCCc1ccccc1,-,-,1.26 µM
CC(C)[C@H](NC(=O)[C@@H]1CCCN1C(=O)[C@@H](O)[C@H](Cc1ccccc1)NC(=O)OC(C)(C)C)C(=O)NCC1CCCCC1,-,-,<1000 µM
CCC(Cc1cccc(NS(=O)(=O)c2ccccc2)c1)c1cc(O)c(C(c2ccccc2)C2CC2)c(=O)o1,-,fluorescence,4.3 µM
CC(C)[C@H](NC(=O)[C@H](Cc1ccccc1)NC(=O)[C@H](O)[C@@H](O)[C@H](O)[C@H](O)CO)C(=O)N[C@@H](Cc1ccccc1)[C@@H](O)[C@H](O)[C@H](Cc1ccccc1)NC(=O)[C@@H](NC(=O)[C@H](Cc1ccccc1)NC(=O)[C@H](O)[C@@H](O)[C@H](O)[C@H](O)CO)C(C)C,D34,HPLC,0.0009 µM
CCCCCCCCCCCCCCCC(=O)O,-,HPLC,>300 µM
CC(C)[C@H](NC(=O)[C@H](Cc1cccc2ccccc12)CS(=O)(=O)C(C)(C)C)C(=O)N[C@@H](Cc1ccc2c(c1)OCO2)[C@@H](O)[C@H](O)[C@H](Cc1ccc2c(c1)OCO2)NC(=O)[C@@H](NC(=O)[C@H](Cc1cccc2ccccc12)CS(=O)(=O)C(C)(C)C)C(C)C,D34,HPLC,0.0004 µM
CCOC(=O)c1cn(CC(O)CNc2ccc(C(=O)OC)cc2)cc1-c1ccccc1,-,-,118 µM
CC(C)(C)S(=O)(=O)C[C@@H](Cc1cccc2ccccc12)C(=O)NCCC(=O)N[C@@H](Cc1ccccc1)[C@@H](O)[C@H](O)[C@H](Cc1ccccc1)NC(=O)CCNC(=O)[C@H](Cc1cccc2ccccc12)CS(=O)(=O)C(C)(C)C,D34,HPLC,0.05 µM
CC(=O)N[C@@H](Cc1ccc(F)cc1)C(=O)N[C@H](C(=O)N[C@@H](Cc1ccccc1)[C@@H](O)C(=O)N[C@H]1Cc2ccc(cc2)OCCOCCNC(=O)[C@H](C(C)C)NC1=O)C(C)C,-,fluorescence,0.005 µM
CC(C)[C@H](NC(=O)[C@H](Cc1cccc2ccccc12)CS(=O)(=O)C(C)(C)C)C(=O)N[C@@H](Cc1ccccc1)[C@@H](O)[C@H](O)[C@H](Cc1ccccc1)NC(=O)[C@@H](NC(=O)[C@H](Cc1cccc2ccccc12)CS(=O)(=O)C(C)(C)C)C(C)C,D34,HPLC,0.0003 µM
CC(=O)N[C@@H](Cc1c[nH]c2ccccc12)C(=O)N[C@H](C(=O)N[C@@H](Cc1ccccc1)[C@@H](O)C(=O)N[C@H]1Cc2ccc(cc2)OCCOCCNC(=O)[C@H](C(C)C)NC1=O)C(C)C,-,fluorescence,0.005 µM
CC(C)[C@H](NC(=O)[C@H](Cc1cc[n+]([O-])cc1)CS(=O)(=O)C(C)(C)C)C(=O)N[C@@H](Cc1ccccc1)[C@@H](O)[C@H](O)[C@H](Cc1ccccc1)NC(=O)[C@@H](NC(=O)[C@H](Cc1cc[n+]([O-])cc1)CS(=O)(=O)C(C)(C)C)C(C)C,D34,HPLC,0.007 µM
CCOC(=O)c1cc2cc(Cl)ccc2n1CC(O)CNc1ccccc1C(=O)OC,-,-,72 µM
CS(=O)(=O)C[C@H](NC(=O)COc1cccc2ccccc12)C(=O)N[C@@H](Cc1ccccc1)[C@H](O)C(=O)N1CSC[C@H]1C(=O)N[C@H](C(N)=O)c1ccccc1,-,-,>0.05 µM
O=c1c(O)c(-c2ccc(O)cc2)oc2cc(OC3O[C@@H](O)[C@H](O)[C@H](O)[C@H]3O)cc(O)c12,-,HPLC,146.6 µM
CCOC(=O)c1ccn(CC(O)CNc2ccccc2)c1,-,-,>200 µM
CCC(Cc1cccc(NS(=O)(=O)c2ccc(C#N)cc2)c1)c1cc(O)c(C(c2ccccc2)C2CC2)c(=O)o1,-,fluorescence,0.89 µM
CC(C)(C)NC(=O)[C@@H]1CCCN1C(=O)[C@@H](O)[C@H](Cc1ccccc1)NC(=O)[C@H](CS(N)(=O)=O)NC(=O)OC(C)(C)C,-,-,>5 µM
CC(C)[C@H](NC(=O)[C@H](Cc1cccc2ccccc12)CS(=O)(=O)C(C)(C)C)C(=O)N[C@@H](Cc1ccccc1)[C@H](N)[C@H](O)[C@H](Cc1ccccc1)NC(=O)[C@@H](NC(=O)[C@H](Cc1cccc2ccccc12)CS(=O)(=O)C(C)(C)C)C(C)C,D34,HPLC,0.0021 µM
CC[C@@H](C)[C@H](NC(=O)[C@@H]1CCCN1C(=O)[C@@H](O)[C@H](CC1CCCCC1)NC(=O)[C@H](CC(N)=O)NC(=O)[C@@H]1Cc2ccccc2CN1)C(=O)N[C@H](C(N)=O)C(C)C,-,-,<5 µM
CC(=O)O[C@@H]1OC(Oc2c(-c3ccc(O)cc3)oc3cc(OC4O[C@@H](O)[C@H](O)[C@H](O)[C@H]4O)cc(O)c3c2=O)[C@H](O)[C@@H](OC(C)=O)[C@H]1O,-,HPLC,>300 µM

The last 4 rows once more:

compound,strain,method,value
CC(C)(C)NC(=O)[C@@H]1CCCN1C(=O)[C@@H](O)[C@H](Cc1ccccc1)NC(=O)[C@H](CS(N)(=O)=O)NC(=O)OC(C)(C)C,-,-,>5 µM
CC(C)[C@H](NC(=O)[C@H](Cc1cccc2ccccc12)CS(=O)(=O)C(C)(C)C)C(=O)N[C@@H](Cc1ccccc1)[C@H](N)[C@H](O)[C@H](Cc1ccccc1)NC(=O)[C@@H](NC(=O)[C@H](Cc1cccc2ccccc12)CS(=O)(=O)C(C)(C)C)C(C)C,D34,HPLC,0.0021 µM
CC[C@@H](C)[C@H](NC(=O)[C@@H]1CCCN1C(=O)[C@@H](O)[C@H](CC1CCCCC1)NC(=O)[C@H](CC(N)=O)NC(=O)[C@@H]1Cc2ccccc2CN1)C(=O)N[C@H](C(N)=O)C(C)C,-,-,<5 µM
CC(=O)O[C@@H]1OC(Oc2c(-c3ccc(O)cc3)oc3cc(OC4O[C@@H](O)[C@H](O)[C@H](O)[C@H]4O)cc(O)c3c2=O)[C@H](O)[C@@H](OC(C)=O)[C@H]1O,-,HPLC,>300 µM

An empty or dashed field is not shown. Neighbouring rows are from separate reports.